Measurements reported in PubChem BioAssay AID1376 (SRMLSC, 2008).
This is a selection; strong and weak results do not stand in their true shares. Measured potencies and affinities stand elsewhere. Active and inactive are the calls of the source. Rule as the data show it: active = inhibition above about 13%; inconclusive = no clear call, values can overlap the other calls; inactive = below that.

Chains of the proteins cited; added tags and fusions are not shown.
UniProt P9WMN3, whole entry: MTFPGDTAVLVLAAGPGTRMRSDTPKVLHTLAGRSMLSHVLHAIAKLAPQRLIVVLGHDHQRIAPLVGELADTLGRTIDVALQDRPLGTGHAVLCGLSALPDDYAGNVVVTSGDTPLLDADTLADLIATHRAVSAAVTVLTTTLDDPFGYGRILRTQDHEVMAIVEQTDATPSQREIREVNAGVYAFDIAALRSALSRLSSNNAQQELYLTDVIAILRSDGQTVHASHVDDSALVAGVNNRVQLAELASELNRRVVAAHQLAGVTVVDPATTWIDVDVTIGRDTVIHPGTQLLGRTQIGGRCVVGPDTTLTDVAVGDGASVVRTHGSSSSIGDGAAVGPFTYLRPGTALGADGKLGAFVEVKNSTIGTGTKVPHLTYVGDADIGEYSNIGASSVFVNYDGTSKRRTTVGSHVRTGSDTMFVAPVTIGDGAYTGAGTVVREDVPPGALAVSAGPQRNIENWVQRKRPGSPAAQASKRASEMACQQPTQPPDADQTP

molecular target: Bifunctional protein GlmU (Mycobacterium tuberculosis (strain ATCC 25618 / H37Rv)) (UniProt P9WMN3); experiment: inhibition of mycobacterial GlmU enzyme – biochemical, glucosamine-1-phosphate acetyltransferase (AID 1376);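 also: 0% = complete reaction with vehicle and 100% = reaction without substrate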; settings: M. tuberculosis GlmU acetyltransferase enzyme assay; active compounds read high;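 tested at 30 µM in the primary screen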

| Compound | inhibition |
| --- | --- |
| CCN(CC)CCCOC(=O)C(O)(c1ccccc1)c1ccccc1 | inactive: 0.37% |
| CCOC(=O)c1ccc(NP(C)(=O)Oc2ccccc2)cc1 (stereo not drawn) | inactive: -3.66% |
| COc1ccccc1OP(C)(=O)Nc1ccc(C)cc1 (stereo not drawn) | inactive: 0.96% |
| COc1ccccc1OP(C)(=O)Nc1cc(Cl)ccc1C (stereo not drawn) | inactive: 4.95% |
| Cc1cc(C)cc(OP(C)(N)=O)c1 (stereo not drawn) | inactive: -3.31% |
| CC(C)(C)c1ccc(OP(C)(=O)Nc2ccc(SC(F)(F)F)cc2)cc1 (stereo not drawn) | inactive: 0.52% |
| Cc1cccc(C)c1OP(C)(N)=O (stereo not drawn) | inactive: 2.87% |
| O=[N+]([O-])c1ccc2c(c1)C=Nc1ccccc1O2 | inactive: -2.18% |
| CP(=S)(Nn1cnnc1)Oc1ccccc1 (stereo not drawn) | inactive: -6.64% |
| COc1ccccc1OP(C)(=O)Nc1ccccc1 (stereo not drawn) | inactive: 0.42% |
| CP(=O)(Nc1ccccc1Br)Oc1ccccc1 (stereo not drawn) | inactive: -9.04% |
| CCOP(C)(=S)SCC(=O)NC(C)C(=O)O (stereo not drawn) | inactive: 3.08% |
| CCOC(=O)c1ccc(NP(C)(=O)Oc2ccc(OC)cc2)cc1 (stereo not drawn) | inactive: 0.77% |
| CP(=O)(Nc1ccccn1)Oc1ccc(Cl)cc1 (stereo not drawn) | inactive: 2.07% |
| CP(=O)(Nc1ccc(SC(F)(F)F)cc1)Oc1ccc(Cl)cc1 (stereo not drawn) | inactive: -1.84% |
| Cc1cccc(C)c1OP(C)(=O)Nc1ccc(SC(F)(F)F)cc1 (stereo not drawn) | inactive: -1.33% |
| CP(=O)(Oc1ccccc1)OC(c1ccccc1)C(F)(F)F (stereo not drawn) | inactive: 0.4% |
| CP(=O)(NC(=O)Nc1ccccc1)Oc1ccccc1 (stereo not drawn) | inactive: 0.65% |
| CCc1ccc(OP(C)(=O)N2CCN(c3ccc([N+](=O)[O-])cc3)CC2)cc1 (stereo not drawn) | inactive: 2.23% |
| Cc1cc(C)cc(OP(C)(=O)Nc2ccc(SC(F)(F)F)cc2)c1 (stereo not drawn) | inactive: -2.34% |
| Cc1nc2ccc3ccccc3c2s1.O=[N+]([O-])c1cc([N+](=O)[O-])c(O)c([N+](=O)[O-])c1 | inactive: 0.75% |
| O=[N+]([O-])c1cc([N+](=O)[O-])c(-n2nnc3ccccc32)c([N+](=O)[O-])c1 | inactive: 9.26% |
| CN1CCCCC1COC(=O)C1(O)c2ccccc2CCc2ccccc21 (stereo not drawn) | inactive: -1.31% |
| COc1ccccc1OP(C)(=O)Nc1c(C)cccc1C (stereo not drawn) | inactive: 6.4% |
| CCCOc1ccc(NP(C)(=O)Oc2ccc(Cl)cc2)cc1 (stereo not drawn) | inactive: -0.69% |
| CP(=O)(Nc1ccc(SC(F)(F)F)cc1)Oc1ccccc1 (stereo not drawn) | inactive: 0.31% |
| O=[N+]([O-])c1cc([N+](=O)[O-])c(Nc2nnnn2CCO)c([N+](=O)[O-])c1 | inactive: 0.03% |
| CCOC(=O)C(CC)C1=NC(C)(C)Cc2ccccc21.O=[N+]([O-])c1cc([N+](=O)[O-])c(O)c([N+](=O)[O-])c1 (stereo not drawn) | inactive: -2.88% |
